Results of unrelated studies side by side (data: NIAID ChemDB).

Shared fields: tests in culture; species: Candida albicans; measure: MIC

Blank or dashed fields: not listed here. Neighbouring rows are from separate reports.

| SMILES | strain | read by | result |
|---|---|---|---|
| CCCCCCCCCCCC[N+](C)(C)COCC | ATCC 10231 |  | 81 µM |
| Cc1nc2c(s1)C(=O)C(Nc1cccc(F)c1)=C(Cl)C2=O | KCCM 50235 | broth dilution | 12.5 µg/mL |
| C=C1C[C@@H]2C[C@@H]3CCO[C@@H](O3)c3coc(n3)/C=C/C[C@H]3O[C@@H](/C(C)=C/I)[C@H](C)[C@@H](OC(=O)/C=C\C[C@@H](C1)O2)[C@H]3C | 96-489 | broth dilution | >64 µg/mL |
| Cc1ccc(N2NOC(=O)C2S(=O)(=O)Nc2ccc(-n3c(-c4ccccc4[N+](=O)[O-])nc4ccccc4c3=O)cc2)cc1 | MTCC 227 | broth dilution | 500 µg/mL |
| Cc1ccc(C2CC3(NNC(=S)N3)C(C)C(c3ccc(C)cc3)N2C)cc1 |  |  | 200 µg/mL |
| Oc1ccc(/C=C/c2ccc(Cl)cc2)cc1 | PCM 1409 PZH |  | 25 µg/mL |
| CCC(C)CC(C)CCCCCCCCC(=O)N[C@H]1C[C@@H](O)[C@H](NCCN)NC(=O)[C@@H]2[C@@H](O)CCN2C(=O)[C@H]([C@H](O)CCN)NC(=O)[C@H]([C@H](O)[C@@H](O)c2ccc(O)cc2)NC(=O)[C@@H]2C[C@@H](O)CN2C(=O)[C@H]([C@@H](C)O)NC1=O | 90028 |  | 0.03 µg/mL |
| Fc1ccc(OCCC(Cn2ccnc2)c2ccc(Cl)cc2Cl)cc1 |  |  | 10 µg/mL |
| CCC[C@H](O)C[C@@H]1CC[C@H](C)CCCCC(=O)N(C)[C@@H](Cc2ccc(OCCO)cc2)C(=O)O1 | TIMM1768 |  | 8 µg/mL |
| Clc1ccc(C(CCCOc2ccc(Br)cc2)Cn2ccnc2)c(Cl)c1 |  |  | >100 µg/mL |
| C=C1CCC2[C@](C)(C(=O)O)CCC[C@]2(C)[C@@H]1CCCC(C)CC(=O)O | UBC1 |  | >50 µg/mL |
| CC(=O)Oc1cccc(/C=C/c2ccc([N+](=O)[O-])cc2[N+](=O)[O-])c1 | PCM 1409 PZH |  | 100 µg/mL |
| Cc1nc2c(s1)C(=O)C(Nc1ccc(F)cc1)=C(Cl)C2=O | KCCM 50235 | broth dilution | 12.5 µg/mL |
| CC(C)[C@@H](C)[C@H](O)[C@@H]1CC23CC(=O)[C@]4(O)C(=C2CC[C@@H]3[C@@H]1C)C=C[C@]1(O)CC(=O)CC[C@]41C | IFM 40009 |  | >80 µg/mL |
| CCCCCCCC[N+](C)(C)COC(C)CCC | ATCC 10231 |  | 1700 µM |
| CCOC(=O)c1c(N)oc2c1cc(O)c1sc(C)nc12 | KCCM 50235 | broth dilution | 100 µg/mL |
| COc1cccc([C@]2(Cn3ccnc3)C[C@@H](CS(=O)c3ccc(Cl)cc3)ON2C)c1 | ATCC10259 |  | >70 µg/mL |
| OC(c1cc(-c2ccc(Cl)cc2)nc2c1ccc1ccccc12)C1CCCCN1 | ATCC 90028 |  | 0.8 µg/mL |
| O=C1c2ccccc2C(=O)C2CC(O)OCC12 | ATCC 18804 | broth dilution | 340.3 µM |
| Clc1ccc(C(COc2ccccc2Cl)Cn2ccnc2)c(Cl)c1 |  |  | 100 µg/mL |
| C=C1C[C@@H]2C[C@@H]3CCO[C@@H](O3)c3cccc(c3)/C=C\C[C@H]3O[C@@H](/C(C)=C/C#N)[C@H](C)[C@@H](OC(=O)/C=C/C[C@@H](C1)O2)[C@H]3C | 96-489 | broth dilution | >64 µg/mL |
| COC(=O)[C@H](C)OC(=O)[C@H](Cc1cnc[nH]1)NC(=O)CNC(=O)[C@H](Cc1cnc[nH]1)NC(=O)COc1c(Br)c(=O)oc2ccccc12 |  |  | 6.25 µg/mL |
| Clc1ccc(OCCCC(Cn2ccnc2)c2ccc(Cl)cc2Cl)cc1 |  |  | >100 µg/mL |
| COc1ccc(N/N=c2/sc3nnc(-c4ccncc4)n3nc2C)cc1 | ATCC 66027 | broth dilution | 25 µg/mL |
| O=C(Nc1c(F)cccc1F)OCCCN1CCN(c2nc3ccccc3s2)CC1 | CY1124 |  | 0.71 µg/mL |
| Cc1nc2c(s1)C(=O)C(Nc1ccc(C#N)cc1)=C(Cl)C2=O | KCCM 50235 | broth dilution | 3.2 µg/mL |
| Cc1ccc(N2NOC(=O)C2S(=O)(=O)Nc2ccc(-n3c(-c4ccccc4Cl)nc4ccccc4c3=O)cc2)cc1 | MTCC 227 | broth dilution | 1000 µg/mL |
| CCCCCCCCCCOC[N+](C)(C)CCCCCCCC | ATCC 10231 |  | 137 µM |
| C=C1C[C@@H]2C[C@@H]3CCO[C@@H](O3)c3cccc(c3)/C=C/C[C@H]3O[C@@H](/C(C)=C/I)[C@H](C)[C@@H](OC(=O)/C=C\C[C@@H](C1)O2)[C@H]3C | UCD-FR1 | broth dilution | >64 µg/mL |
| COC(=O)[C@@H]1CCCN1C(=O)COc1c(Br)c(=O)oc2ccccc12 |  |  | 6.25 µg/mL |
| Cc1ccc(N2NOC(=O)C2S(=O)(=O)Nc2nc3ccc(Br)cc3s2)cc1 | MTCC 227 | broth dilution | >1000 µg/mL |
| CCOc1cc2c(cc1F)n([O-])c(C)c(Cl)[n+]2=O | Clinical isolate 6 |  | 15.6 µg/mL |
| COc1cc(O)c2c(c1)C(=O)c1c(cc3c(c1O)-c1c(cc(C)c(C(=O)NC(CO)C(=O)O)c1O)[C@H](OC1OC(C)C(O)C(OC4OCC(O)C(O)C4O)C1O)C3O)C2=O | 97 strains |  | 4 µg/mL |
| COC(=O)[C@@H](NC(=O)c1ccccc1-c1cnc(C)[nH]1)[C@@H](C)O |  |  | 6.25 µg/mL |
| Cc1c(S(=O)(=O)c2ccccc2)[n+](=O)c2cc(Cl)ccc2n1[O-] | Clinical isolate 4 |  | 15.6 µg/mL |
| C=C1C[C@@H]2C[C@@H]3CCO[C@@H](O3)c3coc(n3)/C=C/C[C@H]3O[C@@H](/C(C)=C/c4coc(C[C@]5(OC)C[C@H](OC)C[C@H]([C@H](O)/C=C(C)/C=C/[C@@H](C/C=C/Cl)OC)O5)n4)[C@H](C)[C@@H](OC(=O)/C=C\C[C@@H](C1)O2)[C@H]3C | ATCC 14503 | broth dilution | >64 µg/mL |
| Cc1nn2c(-c3ccncc3)nnc2s/c1=N/Nc1ccccc1 | ATCC 66027 | broth dilution | >100 µg/mL |
| C=CCN(CC=C)c1nnc2c(cnc3ccccc32)n1 | VM-81 |  | 50 µg/mL |
| C=C1CCC2[C@](C)(CO)CCC[C@]2(C)[C@H]1CC/C(C)=C\C(=O)OC | UBC1 |  | >50 µg/mL |
| Fc1ccc(OCCCC(Cn2ccnc2)c2ccc(Cl)cc2Cl)cc1 |  |  | >100 µg/mL |
| CC(/C=C/C=C(\C)C(O)C(C)C(=O)O[C@H]1C[C@@H](C)C=C2C=C[C@]3(C)O[C@@H](O)CC(=O)[C@]3(C)[C@H]21)=C\C=C\C(=O)O | AC3413 |  | 0.78 µg/mL |
| C[C@H]1[C@H](O)[C@@H](C)/C=C/C=C/C=C/C=C/C=C/C=C/C=C/[C@H](O[C@@H]2O[C@H](C)[C@@H](O)[C@H](N)[C@@H]2O)C[C@@H]2O[C@](O)(C[C@@H](O)C[C@@H](O)CC[C@H](O)[C@@H](O)C[C@@H](O)CC(=O)O[C@H]1C)C[C@H](O)[C@H]2C(=O)O |  | absorbance | 0.16 µg/mL |
| CC1(C)CC(=O)c2cc(C3=CC(c4ccc(Br)cc4)=CC3c3nnc4c(n3)Nc3ccccc3N4)[nH]c2C1 | ATCC 2091 |  | 200 µg/mL |
| CCCCCCCCCCCC[N+](C)(C)COCCCCC | ATCC 10231 |  | 28.6 µM |
| CC1(C)CC(=O)c2cc(/C=C/C(=O)c3ccc(Cl)cc3)[nH]c2C1 | ATCC 2091 |  | 200 µg/mL |
| CCOc1cc2c(cc1F)n([O-])c(C)c(S(=O)(=O)c1ccccc1)[n+]2=O | Clinical isolate 7 |  | 15.6 µg/mL |
| O=C(COc1cc(=O)oc2ccccc12)N[C@@H](Cc1ccc(O)cc1)C(=O)O |  |  | 12.5 µg/mL |
| COc1ccc(-c2cc(-c3ccc(F)cc3)nc(NC(=O)CN3CCOCC3)n2)cc1 |  |  | 50 µg/mL |
| O=C(Cc1nnc2nnc3c(n12)Nc1ccccc1C3)NNC(=S)Nc1ccccc1 | ATCC 2091 |  | 200 µg/mL |
| CN1O[C@H](CSc2ccc(Cl)cc2)C[C@]1(c1ccc(F)cc1)n1ccnc1 | ATCC10259 |  | 2 µg/mL |
| Cc1c(Sc2ccccc2)[n+](=O)c2cc(C(F)(F)F)ccc2n1[O-] | Clinical isolate 14 |  | 15.6 µg/mL |
| O=C(NNC(=S)NC1C2CC3CC(C2)CC1C3)C1C2CC3CC(C2)CC1C3 | IFO 0583 |  | 4 µg/mL |
| C=C1C[C@@H]2C[C@@H]3CCO[C@@H](O3)c3cccc(c3)/C=C/C[C@H]3O[C@@H](/C(C)=C/C#N)[C@H](C)[C@@H](OC(=O)/C=C/C[C@@H](C1)O2)[C@H]3C | UCD-FR1 | broth dilution | >64 µg/mL |
| CC1C(c2ccccc2)N(C)C(c2ccccc2)CC12NNC(=S)N2 |  |  | 100 µg/mL |
| C[C@H]1C(=O)CCC2[C@]3(C)CC[C@@]4(C)C5CC(C)(C)CC[C@]5(C)CC[C@]4(C)C3CC[C@@]21C |  | absorbance | >250 µg/mL |
| C[C@H]1[C@H](O)[C@@H](C)/C=C/C=C/C=C/C=C/C=C/C=C/C=C/[C@H](O[C@@H]2O[C@H](C)[C@@H](O)[C@H](N)[C@@H]2O)C[C@@H]2O[C@](O)(C[C@@H](O)C[C@@H](O)CC[C@H](O)[C@@H](O)C[C@@H](O)CC(=O)O[C@H]1C)C[C@H](O)[C@H]2C(=O)O | MYA-2732 | broth dilution | 0.06 µg/mL |
| Cc1ccccc1N/N=c1/sc2nnc(-c3ccncc3)n2nc1C | ATCC 66027 | broth dilution | >100 µg/mL |
| CCCCOc1ccc(-c2csc(NS(=O)(=O)C3C(=O)ONN3c3ccc(C)cc3)n2)cc1 | MTCC 227 | broth dilution | 200 µg/mL |
| C/C(=N\NC(=S)Nc1cccc([N+](=O)[O-])c1)c1c(O)ccc2c(C)cc(=O)oc12 |  |  | 15 µg/mL |
| Cc1nc2c(s1)C(=O)C(Nc1ccc(I)cc1)=C(Cl)C2=O | KCCM 50235 | broth dilution | 3.2 µg/mL |
| COc1ccc(C2CC3(CC(c4ccc(OC)cc4)N2C)NNC(=S)N3)cc1 |  |  | 25 µg/mL |
| Clc1nnc2c(cnc3ccccc32)n1 | VM-71 |  | ≤10 µg/mL |
| OC(c1cc(-c2ccccc2)nc2c(Cl)cc(Cl)cc12)C1CCCCN1 | ATCC 90028 |  | 2.5 µg/mL |
| CC(=O)N1CCN(c2ccc(OC[C@H]3CO[C@](Cn4ccnc4)(c4ccc(Cl)cc4Cl)O3)cc2)CC1 | ATCC 66027 | broth dilution | 30 µg/mL |
| O=C(COc1c(Br)c(=O)oc2ccccc12)N[C@@H](Cc1cnc[nH]1)C(=O)O[C@@H](Cc1c[nH]c2ccccc12)C(=O)O |  |  | 6.25 µg/mL |
| C=C1C[C@@]23CC[C@H]4[C@@](C)(CCC[C@@]4(C)C(=O)OC)[C@@H]2CC[C@@H]1C3 | UBC1 |  | >50 µg/mL |
| COC(=O)[C@H](C)NC(=O)[C@H](Cc1c[nH]c2ccccc12)NC(=O)c1ccccc1-c1cnc(C)[nH]1 |  |  | 6.25 µg/mL |
| CN1O[C@H](CSc2ccc([N+](=O)[O-])cc2)C[C@]1(c1ccc(Cl)cc1)n1ccnc1 | ATCC10259 |  | 7 µg/mL |
| CC1C(c2ccc(Cl)cc2)N(C)C(c2ccc(Cl)cc2)CC12NNC(=S)N2 |  |  | 50 µg/mL |
| COc1cccc([C@]2(n3ccnc3)C[C@@H](CSc3ccc(Cl)cc3)ON2C)c1 | ATCC10259 |  | 20 µg/mL |
| COc1ccc(C2=NN(C(N)=S)C(c3cc4c([nH]3)CC(C)(C)CC4=O)C2)cc1 | ATCC 2091 |  | 200 µg/mL |